Experimental data as given in PMC3358452 (Chemical Research in Toxicology, 2012).

System: F344 rat liver
Settings: in vivo

For aflatoxin B1 [AFB1, reference compound], the “induction of preneoplastic GST-P positive foci in liver (in words)” value was “elicited the expected preneoplastic foci in the livers of each rat tested”.
